For one substance, Km and kcat/Km results are on record in article PMC9299109 (Iubmb Life, 2021).

Usually Km stands for the concentration of substrate that gives half-maximal velocity. As a reminder, the kcat/Km is the turnover number divided by the Michaelis constant.

What all share (assay): purified protein
Data set [1] relates to Cc1cc2nc3c(=O)[nH]c(=O)nc-3n(C[C@H](O)[C@H](O)[C@H](O)CO)c2cc1C. The conditions noted are these: pH 7.0; 25.0 °C.
In data set [2] the test system is Cc1cc2nc3c(=O)[nH]c(=O)nc-3n(C[C@H](O)[C@H](O)[C@H](O)COP(=O)(O)OP(=O)(O)OC[C@H]3O[C@@H](n4cnc5c(N)ncnc54)[C@H](O)[C@@H]3O)c2cc1C. The conditions noted are these: pH 8.0; 37.0 °C.
Data set [3] concerns Cc1cc2nc3c(=O)[nH]c(=O)nc-3n(C[C@H](O)[C@H](O)[C@H](O)COP(=O)(O)O)c2cc1C. Conditions: pH 8.0; 37.0 °C.
The next data set deals with O=P(O)(O)OP(=O)(O)O. Conditions: pH 8.0; 37.0 °C.
Data set [4] has as its system Nc1ncnc2c1ncn2[C@@H]1O[C@H](COP(=O)(O)OP(=O)(O)OP(=O)(O)O)[C@@H](O)[C@H]1O.

For “BoFADS (FAD synthase from Brucella ovis) (Brucella ovis ATCC 25840)”, the Km in data set [1] turned out to be 0.6 ± 0.1 µM; in data set [2], 1.5 ± 0.5 µM; in data set [3], 5.1 ± 0.4 µM; in the data set with O=P(O)(O)OP(=O)(O)O it was 12 ± 2 µM; in data set [4] (pH 7.0, 25.0 °C) it was 50 ± 5 µM; in data set [4] (pH 8.0, 37.0 °C) it was 97 ± 9 µM. Moreover, the kcat/Km turned out to be 333000 M⁻¹ s⁻¹ in data set [1]; 15000 M⁻¹ s⁻¹ in data set [2]; 23300 M⁻¹ s⁻¹ in data set [3]; 2000 M⁻¹ s⁻¹ in the data set with O=P(O)(O)OP(=O)(O)O; 3330 M⁻¹ s⁻¹ in data set [4] (pH 7.0, 25.0 °C); 1170 M⁻¹ s⁻¹ in data set [4] (pH 8.0, 37.0 °C).
